Results of unrelated studies side by side (data: NIAID ChemDB).

All rows: tests on isolated targets; organism: Hepatitis C virus; target: NS5B polymerase; read-out: IC50

a–b is a range or a potency band. ICn is the concentration giving n% inhibition. Blank or dashed fields: not listed here. Rows are shuffled and stem from different studies.

structure	strain or isolate	read by	result
Cc1cc(=O)oc2cc(NC(=O)C3(NC(=O)c4ccc5c(c4)nc(-c4ccoc4)n5C4CCCCC4)CCCC3)ccc12	-	-	0.5–5 µM
Cc1cnc(-c2nc3cc(C(=O)N[C@H](C(=O)O)c4c[nH]c5ccc(O)cc45)ccc3n2C2CCCCC2)cn1	-	-	<1 µM
O=C(O)c1ccccc1NS(=O)(=O)c1cc(Cl)c(Cl)cc1Cl	-	nucleotide incorporation	26 µM
CC1=C(c2nc3cc(C(=O)N[C@@H](Cc4c[nH]c5ccc(O)cc45)C(=O)O)ccc3n2C2CCCCC2)CN=N1	-	-	<1 µM
CCCC1(CC(=O)O)CCCC2c3cc(Br)cc(Cl)c3NC21	-	-	>33 µM
COc1ccc([C@H](C)NC(=O)c2ccc3c(c2)nc(-c2ccccn2)n3C2CCCCC2)cc1OC	-	-	1–5 µM
COc1cc(C(=O)N2[C@@H](c3nccs3)[C@@H](c3cnccn3)C[C@@]2(Cn2cccn2)C(=O)O)ccc1C(C)(C)C	genotype 1b	-	<0.1 µM
COC(=O)C(NC(=O)c1ccc2c(c1)nc(-c1ccco1)n2C1CCCCC1)c1ccc(OC)c(OC)c1	-	-	1–5 µM
CC1=C(C(=O)OCCCSc2nc3ccccc3o2)C(CF)NC(=S)N1	-	-	8 µM
O=C(N[C@@H](Cc1c[nH]c2ccc(O)cc12)C(=O)O)c1ccc2nc(-c3ccoc3)[nH]c2c1	-	-	<1 µM
CCCC1(CC(=O)O)CCCC2c3ccccc3NC21	-	-	>33 µM
Nc1ccc(-c2nc3cc(C(=O)N[C@H](C(=O)O)c4c[nH]c5ccc(O)cc45)ccc3n2C2CCCCC2)cn1	-	-	1–5 µM
O=C(O)/C=C/c1ccc(NC(=O)[C@@H](CCc2ccccc2)NC(=O)c2ccc3c(c2)nc(-c2ccoc2)n3C2CCCCC2)cc1	-	-	0.5–5 µM
O=C(O)c1nc(C2CCCCC2)[nH]c(=O)c1O	-	-	>200 µM
NC(=O)[C@H](Cc1c[nH]c2ccccc12)NC(=O)c1ccc2nc(-c3ccc(F)cc3)c(-c3ccc(F)cc3)nc2c1	-	-	<10 µM
CC(NC(=O)c1ccc2c(c1)nc(-c1ccoc1)n2C1CCCCC1)C(=O)Nc1ccc(-c2ccc(C(=O)O)o2)cc1	-	-	<0.5 µM
COc1ccc([C@@H](NC(=O)c2ccc3c(c2)nc(-c2ccccn2)n3C2CCCCC2)C(=O)O)cc1	-	-	1–5 µM
Cc1oc(-c2cccc(NC(=O)[C@@H](C)NC(=O)c3ccc4c(c3)nc(-c3ccoc3)n4C3CCCCC3)c2)cc1C(=O)O	-	-	0.5–5 µM
O=C(O)c1ccc2c(c1)nc(-c1ccc(OCc3cc(C(=O)N4CCC(O)CC4)ccc3-c3ccc(Cl)cc3)cc1F)n2C1CCCCC1	-	-	0.28 µM
CO[C@@H]1[C@H](O)[C@@H](COP(=O)(O)OP(=O)(O)OP(=O)(O)O)O[C@H]1n1ccc(N)nc1=O	-	-	3.8 µM
O=C(N[C@H](C(=O)O)c1c[nH]c2ccc(O)cc12)c1ccc2c(c1)nc(-c1ccc(N3CCCC3)cc1)n2C1CCCCC1	-	-	1–5 µM
Cc1ccc(-c2nc3cc(C(=O)O)ccc3nc2-c2ccc(Cl)cc2)cc1	-	-	<10 µM
O=C(NC1(C(=O)Nc2ccc(-c3ccc(O)cc3)cc2)CCCC1)c1ccc2c(c1)nc(-c1ccoc1)n2C1CCCCC1	-	-	0.5–5 µM
O=C(N[C@@H](Cc1c[nH]c2ccc(O)cc12)C(=O)O)c1ccc2nc(-c3ccccc3)c(-c3ccccc3)nc2c1	-	-	>50 µM
COc1cc(C(=O)N2[C@@H](c3nccs3)[C@@H](c3cnccn3)C[C@@]2(Cc2ccccn2)C(=O)O)ccc1C(C)(C)C	genotype 1b	-	0.1–0.5 µM
COc1ccc(CC(NC(=O)c2ccc3c(c2)nc(-c2cccs2)n3C2CCCCC2)C(=O)O)cc1OC	-	-	<1 µM
COC(=O)OC(C1COC(=O)O1)C1NC(=S)NC(C)=C1C(=O)OCCc1cccc(Cl)c1	-	-	0.9 µM
O=C(N[C@H](C(=O)O)c1c[nH]c2ccc(O)cc12)c1ccc2c(c1)nc(-c1ccno1)n2C1CCCCC1	-	-	1–5 µM
COc1cc(C(=O)N2[C@@H](c3nccs3)[C@@H](c3cnccn3)C[C@@]2(CCS(C)(=O)=O)C(=O)O)ccc1C(C)(C)C	Genotype 1A	-	>1 µM
O=C(O)c1nc(-c2nccn2Cc2ccccc2)[nH]c(=O)c1O	-	-	>50 µM
Cc1cccc(-c2nc3cc(C(=O)N[C@H](C(=O)O)c4c[nH]c5ccc(O)cc45)ccc3n2C2CCCCC2)n1	-	-	5–10 µM
COC(=O)OC(c1oc(=O)oc1C)C1NC(=S)NC(C)=C1C(=O)OCCc1cccc(Cl)c1	-	-	0.8 µM
COc1ccc(N(Cc2c(Cl)cccc2Cl)S(=O)(=O)c2cccc(C#N)c2)cc1C(=O)O	1b	-	0.9 µM
Cc1cc(NS(=O)(=O)c2cc(Cl)c(Cl)cc2Cl)no1	-	nucleotide incorporation	100 µM
O=C(O)COc1ccc2[nH]cc(C[C@H](NC(=O)c3ccc4c(c3)nc(-c3ccoc3)n4C3CCCCC3)C(=O)O)c2c1	-	-	<1 µM
C=C[C@H]1C[C@@]1(NC(=O)c1ccc2c(c1)nc(-c1ccoc1)n2C1CCCCC1)C(=O)Nc1ccc(/C=C/C(=O)O)cc1	-	-	<0.5 µM
NC(=O)[C@H](Cc1c[nH]c2ccc(O)cc12)NC(=O)c1ccc2nc(-c3ccc(F)cc3)c(-c3ccc(F)cc3)nc2c1	-	-	<10 µM
COc1ccc(NC(=O)c2ccc3c(c2)nc(-c2ccccn2)n3C2CCCCC2)cc1OC	-	-	>7 µM
C[C@H]1CCC[C@H](C)C1n1c(-c2cccn2C)nc2cc(C(=O)NC3(C(=O)Nc4ccc(/C=C/C(=O)O)cc4)CCCC3)ccc21	-	-	0.5–5 µM
CCCC1(C(=O)O)CCCC2c3c(C#N)ccc(F)c3NC21	-	-	10 µM
O=C(N[C@H](Cc1ccc(O)cc1)C(=O)O)c1ccc2c(c1)nc(-c1ccoc1)n2C1CCCCC1	-	-	1–5 µM
CCC[C@]1(CC(=O)O)OCCc2c1[nH]c1c(C)ccc(C#N)c21	9606 genotype 1A	-	4.8 µM
O=C(N[C@H](C(=O)O)c1c[nH]c2ccc(O)cc12)c1ccc2c(c1)nc(-c1ccccc1OCCO)n2C1CCCCC1	-	-	1–5 µM
CNC(=O)c1c(-c2ccc(F)cc2)oc2cc(N(CCO)S(C)(=O)=O)c(C3CC3)cc12	1b	-	0.018 µM
O=C(N[C@H](C(=O)O)c1c[nH]c2ccc(O)cc12)c1ccc2c(c1)nc(-c1ccc(=O)[nH]c1)n2C1CCCCC1	-	-	<1 µM
COc1cc(C(=O)N2[C@@H](c3ncc(C)s3)[C@@H](c3cnccn3)C[C@@]2(Cc2nccs2)C(=O)O)ccc1C(C)(C)C	genotype 1b	-	<0.1 µM
O=C(N[C@@H](Cc1c[nH]c2ccccc12)C(=O)O)c1ccc2nc(-c3ccc(F)cc3)c(-c3ccc(F)cc3)nc2c1	-	-	<10 µM
Cc1cccc(Oc2cccc(-c3nc4cc(C(=O)N[C@H](C(=O)O)c5c[nH]c6ccc(O)cc56)ccc4n3C3CCCCC3)c2)c1	-	-	1–5 µM